Measurements from article PMC11670951.

Target: rhesus macaque FcγRI
Assay: flow cytometry on cells
Details: value at the highest antibody concentration, about 5e4 ng/mL (read from the x axis); HEK293T/17 cells transiently transfected with rhesus macaque FcγRI; parent: est. 42000; read off a plot

response (binding score): 2500
Substance: PGT121 (recombinant human IgG1 antibody) L234A; L235A; P329G
